Results of unrelated studies side by side (data: NIAID ChemDB).

Shared fields: target-level tests; organism: HIV-1; target: Reverse transcriptase; measure: inhibition

Lines come from different laboratories, so protocols vary. Percent inhibition refers to the dose given; in toxicity tests it is the harm to the cells. Blank or dashed fields: not listed here.

structure	strain	changes	read by	tested at	result
COC(=O)/C(C)=C/C=C/[C@@H](C)C1CC[C@@]2(C)[C@@H]3CC[C@H]4C(C)(C)C(=O)CC[C@]4(C)C3=CC[C@]12C	-	-	RT activity / radiometric	200 µg/mL	78.84%
O=c1c2cc(O)c(O)cc2oc2cc(O)cc(O)c12	-	-	RT activity / radiometric	200 µg/mL	44.88%
O=[As]O	-	-	ELISA	100 µM	37%
COc1c(OC)c(OC)c(-c2cc(=O)c3c(O)cc(O)cc3o2)c(OC)c1OC	-	-	nucleotide incorporation / radiometric	200 µg/mL	14.8%
CC(C)=CC[C@H]1C[C@]2(C[C@H]3CCC(C)(C)C=C3C)C(=O)C3=C(OC(C)(C)CC3)[C@@](C(=O)c3ccccc3)(C2=O)C1(C)C	-	-	RT activity / radiometric	200 µg/mL	74.29%
CCc1c(Sc2ccccn2)n(COCc2ccccc2)c(=O)[nH]c1=O	-	RT-Y188H	-	50 µM	75%
O=C(/C=C/c1ccc(O)c(O)c1)O[C@@H]1[C@H](O)C[C@@](O)(C(=O)O)C[C@H]1OC(=O)/C=C/c1ccc(O)c(O)c1	-	-	RT activity / absorbance	100 µg/mL	65%
CC(C)=CCC[C@@H](C)[C@@H]1CC[C@]2(C)C3=C(CC[C@@]12C)[C@@]1(C)CC[C@H](O)C(C)(C)[C@@H]1CC3	-	-	RT activity / radiometric	200 µg/mL	6.8%
Cc1ccc(CN2C(=O)CSC2c2c(F)cccc2F)o1	-	-	ELISA	10 µg/mL	26.3%
[O]=[V+2]	-	-	ELISA	10 µM	34%
Clc1ccc(-c2nc3ccccn3c2NC2CCCCC2)c(Cl)c1	-	-	ELISA	50 µM	60.1%
CCNc1cccnc1N1CCN(C(=O)c2cc3cc4c(cc3[nH]2)OCO4)CC1	IIIB	-	RT activity	50 µM	99.4%
[Cs+]	-	-	ELISA	10 µM	2%
C1=Cc2cccnc2N(C2CC2)c2ncccc21	-	RT-L100I	nucleotide incorporation	1 µM	81%
COc1ccccc1N1CCN(C(=O)c2cc3cc4c(cc3[nH]2)OCO4)CC1	IIIB	-	RT activity	50 µM	96.9%
O=C1CSC2(CCCCC2)N1c1ccccn1	-	-	ELISA	10 µg/mL	0%
C/C(=C\CC[C@@H](C)C1CC[C@@]2(C)[C@@H]3CC[C@H]4C(C)(C)C(=O)CC[C@]4(C)[C@@]3(O)CC[C@]12C)C(=O)O	-	-	RT activity / radiometric	200 µg/mL	80.75%
O=C(c1cc2cc3c(cc2[nH]1)OCO3)N1CCN(C(=O)c2ccco2)CC1	IIIB	-	RT activity	50 µM	27.7%
Cc1nc(N2C(=O)CSC2c2c(F)cccc2F)ccc1Br	-	-	ELISA	10 µg/mL	34%
Cc1ccc(N2C(=O)CSC2c2c(Cl)ncnc2Cl)nc1	-	-	RT activity / ELISA / absorbance	10 µg/mL	0%
C=C(CC[C@@H](C)[C@H]1CC[C@@]2(C)[C@@H]3CC[C@H]4[C@](C)(C(=O)O)[C@@H](O)CC[C@@]45C[C@@]35CC[C@]12C)C(C)C	-	-	nucleotide incorporation / radiometric	200 µg/mL	93.6%
O=C1CSC(c2c(Cl)ncnc2Cl)N1c1ncccn1	-	-	RT activity / ELISA / absorbance	100 µg/mL	56.93%
COc1cc(-c2cc(=O)c3c(O)cc(O)cc3o2)c(OC)c(OC)c1OC	-	-	nucleotide incorporation / radiometric	200 µg/mL	18.7%
COc1cc2oc(-c3ccc(O)cc3)cc(=O)c2c(O)c1OC	-	-	RT activity / absorbance	100 µg/mL	55%
O=c1c2cccc(O)c2oc2cc(O)cc(O)c12	-	-	RT activity / radiometric	200 µg/mL	72.01%
CCOc1ccccc1N1CCN(C(=O)c2cc3ccccc3[nH]2)CC1	IIIB	-	RT activity	50 µM	89.6%
CC(C)(C)c1coc(N2C(=O)CSC2c2c(Cl)ncnc2Cl)n1	-	-	RT activity / ELISA / absorbance	10 µg/mL	2.53%
CC1OC(OC2C(Oc3cc(O)c4c(=O)c(O)c(-c5ccc(O)c(O)c5)oc4c3)OC(CO)C(O)C2O)C(O)C(O)C1O	MC99	-	RT activity / fluorescence	200 µg/mL	60.9%
O=[Se](=O)([O-])[O-]	-	-	ELISA	100 µM	14%
COc1c2c(c(C(=O)c3ccccc3)c3c1C=CC(C)(C)O3)OC(C)(C)C=C2	-	-	RT activity / radiometric	200 µg/mL	4.83%
COc1cc(-c2ccccc2)c(OC)c(OC)c1O	-	-	RT activity / radiometric	200 µg/mL	91.15%
O=c1cc(-c2ccccc2)oc2cc(O)c(O)c(O)c12	-	-	-	2 µg/mL	70%
CC1(C)CC[C@]2(C(=O)O)CC[C@]3(C)C(=CCC4[C@@]5(C)CC[C@H](O)C(C)(C)[C@@H]5CC[C@]43C)C2[C@@H]1O	MC99	-	RT activity / fluorescence	200 µg/mL	37%
COc1cc2c(O[C@@H]3O[C@H](CO)[C@@H](O)[C@H](O)[C@H]3O)c(CO)c(CO)c(-c3ccc4c(c3)OCO4)c2cc1OC	-	-	nucleotide incorporation / radiometric	200 µM	0%
O=C1CSC(c2c(Cl)ncnc2Cl)N1c1nc(Cl)cc(Cl)n1	-	-	RT activity / ELISA / absorbance	100 µg/mL	44.9%
COc1cc(O)c2c(=O)cc(-c3cc(OC)c(OC)c(OC)c3OC)oc2c1	-	-	nucleotide incorporation / radiometric	200 µg/mL	3%
CC(C)CN1C(=O)c2ccccc2Oc2ncccc21	-	-	HPLC	1 µM	29%
Clc1ccccc1-c1nc2ccc3ccccc3n2c1NC1CCCCC1	-	-	ELISA	50 µM	87.5%
CC(C)=CCc1c(O)cc2oc3ccc(O)cc3c(=O)c2c1O	-	-	RT activity / radiometric	200 µg/mL	86.34%
[Be+2]	-	-	ELISA	100 µM	<1%
O=C1CSC(c2c(Cl)ncnc2Cl)N1c1ccccn1	-	-	RT activity / ELISA / absorbance	10 µg/mL	7.27%
CO[C@H]1/C=C/O[C@@]2(C)Oc3c(C)c(O)c4c(O)c(c5c(c4c3C2=O)NC2(CCN(CC(C)C)CC2)N=5)=NC(=O)/C(C)=C\C=C\[C@H](C)[C@H](O)[C@@H](C)[C@@H](O)[C@@H](C)[C@H](OC(C)=O)[C@@H]1C	-	-	nucleotide incorporation	150 µg/mL	78%
COc1ccc(-c2cc(OC)c(O)c(OC)c2O)cc1	-	-	RT activity / radiometric	200 µg/mL	45.36%
Fc1ccc2nc(-c3ccccc3Cl)c(NC3CCCCC3)n2c1	-	-	ELISA	50 µM	83%
O=C1CSC(c2c(F)cccc2Cl)N1n1cnnc1	-	-	RT activity / ELISA / absorbance	100 µg/mL	52.91%
C=C/C=C(\C=C/Cc1c2nc(c(-c3ccc(S(=O)(=O)NCCN(CC)CC)cc3)c3ccc([n-]3)c(C/C=C\C(=C/C=C)S(=O)(=O)NCCN(CC)CC)c3ccc([n-]3)c(-c3ccc(S(=O)(=O)NCCN(CC)CC)cc3)c3nc1C=C3)C=C2)S(=O)(=O)NCCN(CC)CC.[O]=[V+2]	-	-	ELISA	50 µM	73%
[Li+]	-	-	ELISA	100 µM	10%
COC(=O)C1(O)C[C@@H](OC(=O)/C=C/c2ccc(O)c(O)c2)C(OC(=O)/C=C/c2ccc(O)c(O)c2)[C@H](OC(=O)/C=C/c2ccc(O)c(O)c2)C1	-	-	RT activity / absorbance	100 µg/mL	54.5%
Clc1ccc2nc(-c3ccccc3Cl)c(NC3CCCCC3)n2c1	-	-	ELISA	50 µM	80%
C/C(=C\C=C\[C@@H](C)C1CC[C@@]2(C)[C@@H]3CC[C@H]4C(C)(C)C(=O)CC[C@]4(C)[C@@]3(O)CC[C@]12C)C(=O)O	-	-	RT activity / radiometric	200 µg/mL	87.39%
CC1OC(OC2C(Oc3cc(O)c4c(=O)c(O)c(-c5ccc(O)cc5)oc4c3)OC(CO)C(O)C2O)C(O)C(O)C1O	MC99	-	RT activity / fluorescence	200 µg/mL	40.9%
[Rb+]	-	-	ELISA	100 µM	3%
Cc1nc(N2C(=O)CSC2c2c(F)cccc2Cl)ccc1Br	-	-	ELISA	10 µg/mL	59.4%
Cc1cc(C)nc(N2C(=O)CSC2c2c(Cl)ncnc2Cl)n1	-	-	RT activity / ELISA / absorbance	10 µg/mL	43.18%
Clc1ccccc1-c1nc2ccc(Br)cn2c1NC1CCCCC1	-	-	ELISA	50 µM	80%
CSc1c(C)c(SC)n2ccncc12	IIIB	-	fluorescence	70 µM	~1%
O=C1CSC(c2c(Cl)cncc2Cl)N1n1cnnc1	-	-	RT activity / ELISA / absorbance	10 µg/mL	25.31%

5 of the rows above, restated:

structure,strain,changes,read by,tested at,result
[O]=[V+2],-,-,ELISA,10 µM,34%
[Rb+],-,-,ELISA,100 µM,3%
CO[C@H]1/C=C/O[C@@]2(C)Oc3c(C)c(O)c4c(O)c(c5c(c4c3C2=O)NC2(CCN(CC(C)C)CC2)N=5)=NC(=O)/C(C)=C\C=C\[C@H](C)[C@H](O)[C@@H](C)[C@@H](O)[C@@H](C)[C@H](OC(C)=O)[C@@H]1C,-,-,nucleotide incorporation,150 µg/mL,78%
COc1c2c(c(C(=O)c3ccccc3)c3c1C=CC(C)(C)O3)OC(C)(C)C=C2,-,-,RT activity / radiometric,200 µg/mL,4.83%
Cc1ccc(N2C(=O)CSC2c2c(Cl)ncnc2Cl)nc1,-,-,RT activity / ELISA / absorbance,10 µg/mL,0%